Pooled drug test results. Numbers come from NIAID ChemDB, via PubChem.

All rows: tests in culture

MIC50, MIC90 and the like: level of inhibition, or share of isolates inhibited. ECn: concentration that inhibits the pathogen or its effect by n%. Inhibition is in % at the dose shown (toxicity tests: loss of growth or viability). Fold resistance: result on the changed form divided by that on wild type. Rows are shuffled and stem from different studies.

N=C(N)c1ncn([C@@H]2O[C@H](CO)[C@@H](O)[C@H]2O)n1 ; organism: West Nile virus ; strain: Uganda ; cells: VERO ; method: cytopathic effect / visual reading ; read-out: EC50 ; result: 320 µg/mL
Nc1nc(N)c2ncn([C@H]3CO[C@@H](CO)O3)c2n1 ; organism: Duck hepatitis B virus ; strain: WILD TYPE ; cells: LMH ; read-out: EC50 ; result: 16.9 µM
CCc1c2c(nc3ccc(O)cc13)-c1cc3c(c(=O)n1C2)COC(=O)[C@]3(O)CC ; organism: Saccharomyces cerevisiae ; strain: JHY6-1C ; read-out: MIC ; result: >100 µg/mL
C#CC[C@@H](C(=O)N[C@H](/C=C/C(=O)OCC)C[C@@H]1CCNC1=O)n1cccc(NC(=O)c2cc(C)on2)c1=O ; organism: Rhinovirus ; strain: Serotype 39 ; cells: H1-HELA ; method: cytopathic effect / XTT ; read-out: EC90 ; result: 0.088 µM
Nc1nc2c(ncn2[C@H]2CO[C@@H](CO)O2)c(=O)[nH]1 ; organism: Duck hepatitis B virus ; strain: WILD TYPE ; cells: Huh7 ; read-out: EC50 ; result: >100 µM
Nc1cc2c(ncn2[C@@H]2O[C@H](CO)[C@@H](O)[C@H]2O)c(=O)[nH]1 ; organism: West Nile virus ; strain: NEW YORK ; cells: VERO ; method: cytopathic effect / visual reading ; read-out: EC50 ; result: >32 µg/mL
OC[C@H]1O[C@@H](n2cnc3c(NC4CCCCCC4)nc(Cl)nc32)[C@H](O)[C@@H]1O ; organism: Bovine herpesvirus 1 ; strain: IRB-LA ; cells: MDBK ; method: cytopathic effect ; read-out: EC50 ; result: >50 µM
NC(=O)c1ncn([C@@H]2O[C@H](CO)[C@@H](O)[C@H]2O)c1O ; organism: Parainfluenza virus ; strain: TYPE 2/GREER ; cells: VERO ; method: plaque count ; read-out: EC50 ; result: 22.1 µg/mL
Nc1ccn([C@@H]2C[C@@H](O)[C@H](CO)O2)c(=O)n1 ; organism: Duck hepatitis B virus ; cells: PDH ; read-out: EC50 ; result: 0.87 µM
CC[C@@]1(OC(=O)CN)C(=O)OCc2c1cc1n(c2=O)Cc2cc3cc4c(cc3nc2-1)OCO4 ; organism: Saccharomyces cerevisiae ; strain: Mutant ΔERG6 ; read-out: MIC ; result: 0.19 µg/mL
Cc1cn([C@H]2C[C@H](N=[N+]=[N-])[C@@H](CO)O2)c(=O)[nH]c1=O ; organism: HIV-2 ; strain: LAV-2 ; cells: CEM ; method: virus yield ; read-out: inhibition ; tested at: 10 µM ; result: 99%
NC(=O)c1ncn([C@@H]2O[C@H](CO)[C@@H](O)[C@H]2O)n1 ; organism: Banzi virus ; strain: H336 ; cells: VERO ; method: cytopathic effect ; read-out: EC50 ; result: 60 µg/mL
c1cc(C2=NCCN2)ccc1CC1CCCN(c2ccc(C3=NCCN3)cc2)C1 ; organism: Pneumocystis carinii ; cells: A549 ; read-out: EC50 ; result: 1.23 µg/mL
CC[C@H](C)[C@H]1NC(=O)[C@@H](NC(=O)[C@@H](CC(C)C)NC)[C@@H](C)OC(=O)[C@H](Cc2ccc(OC)cc2)N(C)C(=O)[C@@H]2CCCN2C(=O)[C@H](CC(C)C)NC(=O)[C@@H](C)C(=O)[C@H](C(C)C)OC(=O)C[C@@H]1O ; organism: Dengue virus ; strain: TYPE 3 ; cells: LLC-MK2 ; method: plaque count ; read-out: EC50 ; result: >2.5 µg/mL
C[C@@]1(O)[C@H](O)[C@@H](CO)O[C@H]1c1c[nH]c2c(N)ncnc12 ; organism: Hepatitis C virus ; cells: HepG2-5B ; method: MTT ; read-out: inhibition ; tested at: 10 µg/mL ; result: 0%
OC[C@H]1O[C@@H](n2cnc3c(NC4CCCCCC4)cc(Cl)nc32)C[C@@H]1O ; organism: Maedi-visna virus ; strain: KV1772 ; cells: Sheep chondrocytes G81092 ; method: cytopathic effect ; read-out: EC50 ; result: 1.41 µM
CO[C@H]1/C=C/O[C@@]2(C)Oc3c(C)c(O)c4c(O)c(c(/C=N/N5CCN(C)CC5)c(O)c4c3C2=O)NC(=O)/C(C)=C\C=C\[C@H](C)[C@H](O)[C@@H](C)[C@@H](O)[C@@H](C)[C@H](OC(C)=O)[C@@H]1C ; organism: Staphylococcus aureus ; strain: 16 strains (methicillin- quinolone-resistant) ; read-out: MIC90 ; result: 1 µg/mL
CN1CCN(C)C1c1ccc(N2CCN(c3ccc(C4N(C)CCN4C)cc3)CC2)cc1 ; organism: Pneumocystis carinii ; cells: A549 ; read-out: EC50 ; result: >100 µg/mL
Nc1ncnc2c1ncn2C[C@H](O)CO ; organism: Pichinde virus ; cells: VERO 76 ; method: antigen ; read-out: EC50 ; result: 471 µg/mL
OC[C@@H]1CC[C@H](n2cnc3c(NC4CC4)nc(Cl)nc32)O1 ; organism: Maedi-visna virus ; strain: KV1772 ; cells: Sheep chondrocytes G81092 ; method: cytopathic effect ; read-out: EC50 ; result: 0.41 µM
Nc1ccc(S(=O)(=O)c2ccc(N)cc2)cc1 ; organism: Mycobacterium ulcerans ; strain: Isolate 8756 ; read-out: MBC ; result: 2 µg/mL
O=c1[nH]c(=O)n([C@@H]2O[C@H](CO)[C@@H](O)[C@H]2O)cc1F ; organism: West Nile virus ; strain: NEW YORK ; cells: VERO ; method: cytopathic effect / visual reading ; read-out: EC50 ; result: >0.32 µg/mL
CCN(CC)CCCn1c(Cn2nc3ccccc3n2)nc2cc(C(F)(F)F)ccc21 ; organism: Respiratory syncytial virus ; strain: LONG ; cells: HEP-2 ; read-out: inhibition ; tested at: 4 µg/mL ; result: 83%
CC1(C)S[C@@H]2[C@H](NC(=O)[C@H](N)c3ccc(O)cc3)C(=O)N2[C@H]1C(=O)O ; organism: Staphylococcus aureus ; strain: 30 strains ; read-out: MIC90 ; result: 0.25 µg/mL
NC(=O)c1c[se]c([C@@H]2O[C@H](CO)[C@@H](O)[C@H]2O)n1 ; organism: West Nile virus ; strain: Uganda ; cells: VERO ; method: cytopathic effect ; read-out: EC50 ; result: 10 µg/mL
Nc1ncnc2c1ncn2CCOCP(=O)(O)O ; organism: Epstein-Barr virus ; cells: P3HR-1 ; read-out: inhibition ; tested at: 0.1 µM ; result: 4%
O=c1cnn([C@@H]2O[C@H](CO)[C@@H](O)[C@H]2O)c(=O)[nH]1 ; organism: West Nile virus ; strain: Uganda ; cells: VERO ; method: cytopathic effect / visual reading ; read-out: EC50 ; result: 1.4 µg/mL
OC(Cn1cncn1)(Cn1cncn1)c1ccc(F)cc1F ; organism: Candida albicans ; strain: YL 346 ; method: broth dilution ; read-out: MIC ; result: >512 µg/mL
CC[C@@]1(O)C(=O)OCc2c1cc1n(c2=O)Cc2cc3c(N)cccc3nc2-1 ; organism: Saccharomyces cerevisiae ; strain: Mutant ΔERG6 ΔTOP1 ; read-out: MIC ; result: >100 µg/mL
CCCN1CCN(c2cc(=O)c3nc4c(oc3c2)c2c(=O)c3c(O)c(C)c5c(c34)=C(O)[C@@](C)(O/C=C/[C@H](OC)[C@@H](C)[C@@H](OC(C)=O)[C@H](C)[C@H](O)[C@H](C)[C@@H](O)[C@@H](C)/C=C/C=C(/C)C(=O)N2)O5)CC1 ; organism: Staphylococcus aureus ; strain: 16 strains (methicillin- quinolone-resistant) ; read-out: MIC50 ; result: 0.0039 µg/mL
CS(=O)(=O)OCCn1c(Cn2nnc3ccccc32)nc2ccccc21 ; organism: Respiratory syncytial virus ; strain: LONG ; cells: HEP-2 ; read-out: inhibition ; tested at: 4 µg/mL ; result: 0%
N=C(N)c1ncn([C@@H]2O[C@H](CO)[C@@H](O)[C@H]2O)n1 ; organism: Influenza A virus (H1N1) ; strain: A/Beijing/262/95 ; cells: MDCK ; method: neutral red ; read-out: EC50 ; result: 32 µg/mL
Nc1ccn([C@@H]2C=C(CO)[C@@H](O)[C@@H]2O)c(=O)n1 ; organism: West Nile virus ; strain: Uganda ; cells: VERO ; method: cytopathic effect / visual reading ; read-out: EC50 ; result: 0.029 µg/mL
OC[C@H]1O[C@@H](n2cnc3c(NC4CCCC4)nc(Cl)cc32)[C@H](O)[C@@H]1O ; organism: Bovine herpesvirus 1 ; strain: IRB-LA ; cells: MDBK ; method: cytopathic effect ; read-out: EC50 ; result: >50 µM
NC(=O)c1[nH]nc([C@@H]2O[C@H](CO)[C@@H](O)[C@H]2O)c1O ; organism: West Nile virus ; strain: NEW YORK ; cells: MA-104 ; method: virus yield ; read-out: EC90 ; result: 0.3 µg/mL
O=Cc1ccc(N2CCN(c3ccc(C=O)cc3)CC2)cc1 ; organism: Pneumocystis carinii ; cells: A549 ; read-out: EC50 ; result: >100 µg/mL
CCn1cc(C(=O)O)c(=O)c2cc(F)c(N3CCNCC3)cc21 ; organism: Haemophilus influenzae ; strain: 44 strains ; read-out: MIC50 ; result: 0.06 µg/mL
OC[C@H]1O[C@@H](n2cnc3c(NC4CC4)ncnc32)C[C@@H]1O ; organism: Maedi-visna virus ; strain: KV1772 ; cells: Sheep chondrocytes G81092 ; method: cytopathic effect ; read-out: EC50 ; result: 1.5 µM
NC1CCN(c2c(F)cc3c(=O)c(C(=O)O)cn(C4CC4)c3c2Cl)C1 ; organism: Staphylococcus aureus ; strain: 20 strains (oxacillin-susceptible) ; read-out: MIC90 ; result: 0.03 µg/mL
COc1cc2c(cc1OC)C1OCCCN1c1c-2ccc2cc3c(cc12)OCO3 ; organism: Saccharomyces cerevisiae ; strain: JHY6-1C ; read-out: MIC ; result: 50 µg/mL
NC(=O)c1ncn([C@@H]2O[C@H](CO)[C@@H](O)[C@H]2O)n1 ; organism: Pichinde virus ; cells: VERO 76 ; method: antigen ; read-out: inhibition ; tested at: 10 µg/mL ; result: 100%
CC(C)N(CCNCCn1c(Cn2nc3ccccc3n2)nc2ccccc21)C(C)C ; organism: Respiratory syncytial virus ; strain: LONG ; cells: HEP-2 ; read-out: inhibition ; tested at: 4 µg/mL ; result: 100%
Nc1ncnc2c1ncn2C[C@@H](CO)OCP(=O)(O)O ; organism: Epstein-Barr virus ; cells: P3HR-1 ; read-out: inhibition ; tested at: 10 µM ; result: 5%
NC(=O)c1ncn([C@@H]2O[C@H](CO)[C@@H](O)[C@H]2O)n1 ; organism: Pichinde virus ; strain: COAN3739 ; cells: VERO 76 ; method: plaque count ; read-out: EC50 ; result: 60 µg/mL
CCN(CC)CCn1c(Cn2nc3ccccc3n2)nc2cc(Cl)ccc21 ; organism: Respiratory syncytial virus ; strain: LONG ; cells: HEP-2 ; read-out: inhibition ; tested at: 4 µg/mL ; result: 100%
Nc1nc(Cl)nc2c1ncn2[C@H]1CC[C@@H](CO)O1 ; organism: Bovine herpesvirus 1 ; strain: IRB-LA ; cells: MDBK ; method: cytopathic effect ; read-out: EC50 ; result: >50 µM
CC(C)(CO)C(=O)SCCOP(=O)(NCc1ccccc1)OC[C@H]1O[C@@H](n2cnc3c(=O)[nH]c(N)nc32)[C@](C)(O)[C@@H]1O ; organism: Hepatitis C virus ; strain: GT1b ; changes: Y93C ; cells: Replicon cells ; method: replicon ; read-out: fold resistance ; result: 0.73
CN1CCN(c2c(F)cc3c(=O)c(C(=O)O)cn4c3c2SCC4CF)CC1 ; organism: Haemophilus influenzae ; strain: 44 strains ; read-out: MIC50 ; result: 0.12 µg/mL
Nc1ccn([C@@H]2C[C@H](CO)[C@@H](O)[C@H]2O)c(=O)n1 ; organism: Vesicular stomatitis virus ; cells: BSC-1A ; method: cytopathic effect ; read-out: EC50 ; result: 300 µg/mL
CC[C@@]1(O)C(=O)OCc2c1cc1n(c2=O)Cc2cc3ccccc3nc2-1 ; organism: Saccharomyces cerevisiae ; strain: JHY6-1C ; read-out: MIC ; result: >100 µg/mL
C[C@@]1(O)[C@H](O)[C@@H](CO)O[C@H]1c1coc2c(N)ncnc12 ; organism: Hepatitis C virus ; cells: HepG2-T5B ; method: MTT ; read-out: inhibition ; tested at: 10 µg/mL ; result: 0%
N=C(N)c1ccc(OCc2ccccc2COc2ccc(C(=N)N)cc2)cc1 ; organism: Pneumocystis carinii ; cells: A549 ; read-out: EC50 ; result: 0.583 µg/mL
CCOc1cc(Cc2cnc(N)nc2N)cc(OCC)c1-n1cccc1 ; organism: Mycobacterium ulcerans ; strain: Isolate 94-539 ; read-out: MIC ; result: 0.5 µg/mL
Nc1ncnc2c1ncn2[C@@H]1C[C@@H](O)[C@H](CO)O1 ; organism: Duck hepatitis B virus ; cells: PDH ; read-out: EC50 ; result: 0.15 µM
COc1cc2c[n+](C)c3c4cc5c(cc4ccc3c2cc1OC)OCO5 ; organism: Saccharomyces cerevisiae ; strain: Mutant ΔERG6 ; read-out: MIC ; result: 1.56 µg/mL
N/C(=N\O)c1ccc(NC(=O)c2cccc(C(=O)Nc3ccc(/C(N)=N/O)cc3)c2)cc1 ; organism: Pneumocystis carinii ; cells: A549 ; read-out: EC50 ; result: >100 µg/mL
Cc1cn([C@H]2O[C@@H](CO)[C@H](O)[C@H]2F)c(=O)[nH]c1=O ; organism: Duck hepatitis B virus ; strain: WILD TYPE ; cells: Huh7 ; read-out: EC50 ; result: 40 µM
CC[C@@]1(O)C(=O)OCc2c1cc1n(c2=O)Cc2c-1nc1cc3c(cc1c2C)OCO3 ; organism: Saccharomyces cerevisiae ; strain: Mutant ΔERG6 ΔTOP1 ; read-out: MIC ; result: >100 µg/mL
O=C1C=CN([C@@H]2O[C@H](CO)[C@@H](O)[C@H]2O)C(=O)C1 ; organism: West Nile virus ; strain: NEW YORK ; cells: VERO ; method: cytopathic effect / visual reading ; read-out: EC50 ; result: >683 µg/mL
Oc1cc(O)c2c(c1)OC(c1ccc(O)c(O)c1)[C@@H](O)C2 ; organism: Candida tropicalis ; strain: Clinical isolate 2 ; method: broth dilution ; read-out: MIC50 ; result: >128 µg/mL